Results of unrelated studies side by side (data: NIAID ChemDB).

All rows: tests on isolated targets; organism: HIV-1; protein: Integrase; measure: IC50

ICn is the concentration giving n% inhibition. Blank or dashed fields: not listed here. Lines come from different laboratories, so protocols vary. a–b is a range or a potency band.

structure | mutations | read by | strain | value
CC1(C)c2nc(C(=O)NCc3ccc(F)cc3)c(O)c(=O)n2CN1Cc1cccnc1 |  | ELISA |  | <10 µM
CCCOc1cc(Cl)ccc1CN1CCn2cc(-c3nccs3)c(=O)c(O)c2C1=O |  | ELISA |  | 0.01–0.1 µM
COc1cc2c(c3c1[nH]c1ccccc13)C(=O)N(CCN(C)C)C2=O |  | ELISA / strand transfer / luminescence |  | >100 µM
CCN1C/C(=C\c2ccc([N+](=O)[O-])c(O)c2)C(=O)/C(=C/c2ccc([N+](=O)[O-])c(O)c2)C1 |  | strand transfer |  | >100 µM
N#C/C(=C\c1ccc(O)c(O)c1)C(=O)NCc1ccccc1 |  | 3′ processing / substrate cleavage |  | 10–100 µM
COc1ccc(/C=C/C(=O)OCCc2ccc(N=C=S)cc2)cc1OC |  | 3′ processing |  | >100 µM
O=C1c2c(O)c(=O)n(CC3COCCN3)c(=O)n2CCN1Cc1ccc(F)cc1 |  | strand transfer |  | <10 µM
O=C(O)CC1C/C(=C\c2cc(O)c(O)c(O)c2)C(=O)/C(=C/c2cc(O)c(O)c(O)c2)C1 |  | disintegration |  | 0.5 µM
O=C(NCc1ccc(O)c(O)c1)c1cc2cc(O)c(O)cc2[nH]1 |  | 3′ processing |  | 11 µM
CN(Cc1cccc(OCc2ccc(F)cc2)c1)C(=O)/C=C(\O)C(=O)O |  | strand transfer |  | <70 µM
CN(C)CCN1C(=O)c2ccc3[nH]c4ccc(O)cc4c3c2C1=O |  | ELISA / strand transfer / luminescence |  | 27.28 µM
O=C(NCCCNC(=O)c1cc2cc3c(cc2[nH]1)OCO3)c1cc2cc3c(cc2[nH]1)OCO3 |  | 3′ processing |  | >100 µM
COc1cc(CN(C)C(=O)/C=C(\O)C(=O)O)ccc1F |  | strand transfer |  | <70 µM
CC1(C)CC(=O)c2c(nc(-c3coc4cc(OCc5cccc(F)c5)ccc4c3=O)n2O)C1 |  | 3′ processing / radiometric |  | >1000 µM
O=C(/C=C/c1ccc(O)c(O)c1)OCCc1cccc(N=C=S)c1 | C65S | 3′ processing |  | 8 µM
COc1ccc(NC(=O)/C(C#N)=C/c2ccc(O)c(O)c2)cc1O |  | 3′ processing / substrate cleavage |  | 10–100 µM
CNCCC1CN(Cc2ccc(F)cc2)C(=O)c2c(O)c(=O)n(C(C)C)c(=O)n21 |  | strand transfer |  | <10 µM
CC1(C)c2nc(C(=O)NCc3ccc(F)cc3)c(O)c(=O)n2CCN1Cc1cn[nH]n1 |  | ELISA |  | <10 µM
O=C(NCc1ccc(F)cc1)C1C(=O)N(O)C(=O)c2ccccc21 |  | ELISA |  | 0.056 µM
O=C(O)/C(O)=C/C(=O)N(Cc1ccc(F)cc1)Cc1ccc(F)c(F)c1 |  | strand transfer |  | <70 µM
O=C(O)C(=O)/C=C(\O)c1cccc(NC(=O)c2cc([N+](=O)[O-])cc([N+](=O)[O-])c2O)c1 |  | strand transfer / gel |  | 2 µM
CC(C)CNC(=O)c1cn2ccn(Cc3cccc(Cl)c3)c(=O)c2c(O)c1=O |  | ELISA |  | 0.01–0.1 µM
C#Cc1cccnc1/C=C/C(=O)/C=C/c1ncccc1C#C |  |  |  | 3 µM
CN1C(=O)CN2CCn3c(nc(C(=O)NCc4ccc(F)cc4)c(O)c3=O)C1C2 |  | ELISA |  | <10 µM
N#C/C(=C\c1cc(O)c(O)c(O)c1)C(=O)NCCCNC(=O)/C(C#N)=C/c1cc(O)c(O)c(O)c1 |  | disintegration |  | 2 µM
O=C(/C=C/c1ccc(O)c(O)c1)OCCc1ccccc1 |  | 3′ processing |  | 5 µM
CN(Cc1ccccc1Cl)C(=O)/C=C(\O)C(=O)O |  | strand transfer |  | <70 µM
CCOC(=O)c1c(C)nc(-c2coc3cc(OCc4ccccc4F)ccc3c2=O)n1O |  | 3′ processing / radiometric |  | 250 µM
CC(=O)N(C)C1COCCn2c1nc(C(=O)NCc1ccc(F)cc1)c(O)c2=O |  | ELISA |  | <10 µM
COc1cccc2c1c(/C(O)=C\C(=O)C(=O)O)cn2Cc1cc(F)ccc1F |  | strand transfer / AlphaScreen | IIIB | 0.03 µM
Cc1cc2c(c3c1[nH]c1cc(F)c(O)cc13)C(=O)N(CCN(C)C)C2=O |  | ELISA / strand transfer / luminescence |  | 4.38 µM
CCOC(=O)c1c(C)nc(-c2coc3cc(OCc4ccc(F)cc4)ccc3c2=O)n1O |  | 3′ processing / radiometric |  | >1000 µM
CN(Cc1ccc(F)cc1)C(=O)/C=C(\O)C(=O)O |  | strand transfer |  | <70 µM
O=C(/C=C/c1ccc(O)c(O)c1)OCCc1ccc(N=C=S)cc1 |  | 3′ processing |  | 4 µM
O=C(/C=C/c1ccccn1)/C=C/c1ccccn1 |  |  |  | 1.6 µM
CC/C=C\C=C\CO[C@H]1O[C@@H](C)[C@H](O)[C@@H](O)[C@H]1O |  | strand transfer / absorbance |  | >100 µM
COc1cccc(CN(C)C(=O)/C=C(\O)C(=O)O)c1 |  | strand transfer |  | <70 µM
O=C(/C=C/c1cc(Br)ccn1)/C=C/c1cc(Br)ccn1 |  |  |  | 5 µM
O=P(O)(O)C(O)(CCCCc1ccccc1)P(=O)(O)O |  | 3′ processing / gel |  | >100 µM
CN(C)CCN1C(=O)c2ccc3c(c2C1=O)c1cc(O)ccc1n3C |  | ELISA / strand transfer / luminescence |  | 5.93 µM
Fc1ccc(-c2cncn2-c2ccc(Br)cc2)cc1 |  | strand transfer / luminescence |  | 25.1 µM
COc1cc(O)c2c(c1)C(=O)C(C)=C(c1c(OC)cc3cc4cc(C)oc(=O)c4c(O)c3c1O)C2=O |  | absorbance |  | 5 µM
N#C/C(=C\c1ccc(O)c(O)c1)C(=O)c1ccc(O)c(O)c1 |  | disintegration |  | 4.2 µM
Cc1cc2c(c3c1[nH]c1cc(Cl)c(O)cc13)C(=O)N(CCN(C)C)C2=O |  | ELISA / strand transfer / luminescence |  | 5 µM
CC/C=C\CCO[C@@H]1O[C@H](CO)[C@@H](O)[C@H](O)[C@H]1O |  | strand transfer / absorbance |  | >100 µM
O=P(O)(O)C(CNc1ccccc1)P(=O)(O)O |  | 3′ processing / gel |  | >100 µM
O=C(O)c1cc2cc(O)c(O)cc2[nH]1 |  | 3′ processing |  | 6.5 µM
COc1cccc2c1c(/C(O)=C/C(=O)C(=O)O)cn2Cc1cc(F)ccc1F.COc1cccc2c1c(/C(O)=C/C(=O)C(=O)O)cn2Cc1cc(F)ccc1F.[Mg+2].[Mg+2] |  | AlphaScreen | IIIB | 0.85 µM
O=C1c2c(O)c(=O)n(CC3COCCO3)c(=O)n2CCN1Cc1ccc(F)cc1 |  | strand transfer |  | <10 µM
CC/C=C\C=C\CO[C@@H]1O[C@H](C)[C@@H](O)[C@H](O)[C@H]1O |  | strand transfer / absorbance |  | >100 µM
CCOC(=O)C1C/C(=C\c2cc(O)c(O)c(O)c2)C(=O)/C(=C/c2cc(O)c(O)c(O)c2)C1 |  | disintegration |  | 0.3 µM
O=C1c2c(O)c(=O)c(-c3nccs3)cn2CCN1Cc1ccccc1Cl |  | ELISA |  | 0.1–1 µM
O=C1c2c(O)c(=O)n([C@@H]3CCCC[C@H]3O)c(=O)n2CCN1Cc1ccc(F)cc1 |  | strand transfer |  | <10 µM
CN(C)CCN1C(=O)c2cc(-c3ccccc3)c3[nH]c4ccccc4c3c2C1=O |  | ELISA / strand transfer / luminescence |  | >100 µM
Cc1ccc(-c2c([C@H](OC(C)(C)C)C(=O)O)c(C)nc3ccccc23)cc1C | T174I | strand transfer / fluorescence |  | 0.758 µM
N#C/C(=C\c1cc(O)c(O)c([N+](=O)[O-])c1)C(=O)NCCCNC(=O)/C(C#N)=C/c1cc(O)c(O)c([N+](=O)[O-])c1 |  | disintegration |  | >12 µM
CC(=O)NC1CN(C)CCn2c1nc(C(=O)NCc1ccc(F)cc1)c(O)c2=O |  | ELISA |  | <10 µM
NC(Cc1ccccc1)(P(=O)(O)O)P(=O)(O)O |  | 3′ processing / gel |  | >100 µM
O=c1ccn2ccn(Cc3ccc(F)cc3)c(=O)c2c1O |  | ELISA |  | 0.01–0.1 µM
Cc1nc(CN2CCn3c(nc(C(=O)NCc4ccc(F)cc4)c(O)c3=O)C2(C)C)cs1 |  | ELISA |  | <10 µM
COc1ccc2[nH]c3c(C)cc4c(c3c2c1)C(=O)N(Cc1ccccc1)C4=O |  | ELISA / strand transfer / luminescence |  | >100 µM
CC(C)(C)C(O)Cc1cc(=O)c(O)c2n1CCN(Cc1ccc(F)cc1)C2=O |  | ELISA |  | 0.01–0.1 µM
Cc1cc(CN2CCn3c(nc(C(=O)NCc4ccc(F)cc4)c(O)c3=O)C2(C)C)on1 |  | ELISA |  | <10 µM
COc1cccc2c1c(/C(O)=C1\COC(=O)C1=O)cn2Cc1ccc(F)cc1 |  | ELISA | IIIB | >100 µM
COc1cccc2c1c(/C(O)=C\C(=O)C(=O)O)cn2Cc1ccccc1F |  | 3′ processing / AlphaScreen | IIIB | 1.8 µM
O=C(/C=C/c1ncccc1Br)/C=C/c1ncccc1Br |  |  |  | 2 µM
CCCCn1cncc1-c1cccc(OC)c1 |  | strand transfer / luminescence |  | 30.5 µM
O=C(c1cc2cc3c(cc2[nH]1)OCO3)N1CCN(C(=O)c2cc3cc4c(cc3[nH]2)OCO4)CC1 |  | 3′ processing |  | >100 µM
COc1ccc(-c2cncn2-c2ccc(Br)cc2)c(OC)c1 |  | strand transfer / luminescence |  | 7 µM
O=P(O)(O)C(O)(CCc1ccccc1)P(=O)(O)O |  | 3′ processing / gel |  | >100 µM

For reference, 8 entries again:

structure | mutations | read by | strain | value
O=C1c2c(O)c(=O)c(-c3nccs3)cn2CCN1Cc1ccccc1Cl |  | ELISA |  | 0.1–1 µM
CC(C)CNC(=O)c1cn2ccn(Cc3cccc(Cl)c3)c(=O)c2c(O)c1=O |  | ELISA |  | 0.01–0.1 µM
O=C(/C=C/c1ccc(O)c(O)c1)OCCc1cccc(N=C=S)c1 | C65S | 3′ processing |  | 8 µM
O=C(/C=C/c1ccc(O)c(O)c1)OCCc1ccc(N=C=S)cc1 |  | 3′ processing |  | 4 µM
CCOC(=O)c1c(C)nc(-c2coc3cc(OCc4ccc(F)cc4)ccc3c2=O)n1O |  | 3′ processing / radiometric |  | >1000 µM
CN(C)CCN1C(=O)c2ccc3[nH]c4ccc(O)cc4c3c2C1=O |  | ELISA / strand transfer / luminescence |  | 27.28 µM
CC(=O)NC1CN(C)CCn2c1nc(C(=O)NCc1ccc(F)cc1)c(O)c2=O |  | ELISA |  | <10 µM
CN(C)CCN1C(=O)c2ccc3c(c2C1=O)c1cc(O)ccc1n3C |  | ELISA / strand transfer / luminescence |  | 5.93 µM